Series [1] addresses T1, TTPFQQ.
T1 chain: TTPFQQ

Series [2] addresses T2, LLPFQQ.
T2 chain: LLPFQQ

The target of series [3] is T3, HHPFQQ.
T3 chain: HHPFQQ

For series [4], the target named is T4, VVPFQQ.
T4 chain: VVPFQQ

The target of series [5] is T5, KKPFQQ.
T5 chain: KKPFQQ

The target in series [6] is T6, CCPFQQ.
T6 chain: CCPFQQ

For series [7], the target named is T7, EEPFQQ.
T7 chain: EEPFQQ

Series [8] has as its target T8, MMPFQQ.
T8 chain: MMPFQQ

For series [9], the target named is T9, PPPFQQ.
T9 chain: PPPFQQ

The target of series [10] is T10, IIPFQQ.
T10 chain: IIPFQQ

The target of series [11] is T11, YYPFQQ.
T11 chain: YYPFQQ

The target of series [12] is T12, DDPFQQ.
T12 chain: DDPFQQ

The target in series [13] is T13, SSPFQQ.
T13 chain: SSPFQQ

The target in series [14] is T14, NNPFQQ.
T14 chain: NNPFQQ

Series [15] addresses T15, RRPFQQ.
T15 chain: RRPFQQ

Series [16] concerns the target T16, GGPFQQ.
T16 chain: GGPFQQ

Series [17] deals with T17, WWPFQQ.
T17 chain: WWPFQQ

Series [18] addresses T18, FFPFQQ.
T18 chain: FFPFQQ

Series [19] deals with T19, AAPFQQ.
T19 chain: AAPFQQ

In series [20] the target is T20, QQPFQQ.
T20 chain: QQPFQQ

Series [21] has as its target T21, FPFPFP{LYSN3}NH2.
T21 chain: FPFPFPX

Series [22] has as its target T22, FWPLPWPDDDY{LYSN3}NH2.
T22 chain: FWPLPWPDDDYK

The target in series [23] is T23, FFPFFP{LYSN3}NH2.
T23 chain: FFPFFPX

The target of series [24] is T24, YAAFAAWADDDW1.
T24 chain: YAAFAAWADDDW

B1: yPIP pAzF (protein)
chain: MTQQEYQNRRQALLAKMAPGSAAIIFAAPEATRSADSEYPYRQNSDFSYLTGFNEPEAVLILVKSDETHNHSVLFNRIRDLTAEIWFGRRLGQEAAPTKLAVDRALPFDEINEQLYLLLNRLDVIYHAQGQYAYADNIVFAALEKLRHGFRKNLRAPATLTDWRPWLHEMRLFKSAEEIAVLRRAGEISALAHTRAMEKCRPGMFEYQLEGEILHEFTRHGARYPAYNTIVGGGENGCILHYTENECELRDGDLVLIDAGCEYRGYAGDITRTFPVNGKFTPAQRAVYDIVLAAINKSLTLFRPGTSIREVTEEVVRIMVVGLVELGILKGDIEQLIAEQAHRPFFMHGLSHWLGMDVHDVGDYGSSDRGRILEPGMVLTVEPGLYIAPDADVPPQYRGIGIRIEDDIVITATGNENLTASVVKDPDDIEALMALNHAGENLYFQE
As to B1, the “HPLC Assay Conv; 1 mM Peptide, 1 uM enzyme, RT/0.5 hr” value in series [1], in series [2], in series [3], in [4], in series [5] and in series [6] was 0% throughout. Moreover, the “HPLC Assay Conv; 1 mM Peptide, 1 uM enzyme, RT/0.5 hr” value is recorded as 0% in series [7]; 0% in series [8]; 26% in [9]; 0% in [10]; 0% in series [11]; 0% in [12]. Further, the “HPLC Assay Conv; 1 mM Peptide, 1 uM enzyme, RT/0.5 hr” value in [13], in series [14], in series [15], in series [16], in series [17] and in [18] was 0% each time. Moreover, the “HPLC Assay Conv; 1 mM Peptide, 1 uM enzyme, RT/0.5 hr” value in series [19] and in [20] was 0% each time.

B2: (Atto647N)n-yPIP (protein)
chain: MTQQEYQNRRQALLAKMAPGSAAIIFAAPEATRSADSEYPYRQNSDFSYLTGFNEPEAVLILVKSDETHNHSVLFNRIRDLTAEIWFGRRLGQEAAPTKLAVDRALPFDEINEQLYLLLNRLDVIYHAQGQYAYADNIVFAALEKLRHGFRKNLRAPATLTDWRPWLHEMRLFKSAEEIAVLRRAGEISALAHTRAMEKCRPGMFEYQLEGEILHEFTRHGARYPAYNTIVGGGENGCILHYTENECELRDGDLVLIDAGCEYRGYAGDITRTFPVNGKFTPAQRAVYDIVLAAINKSLTLFRPGTSIREVTEEVVRIMVVGLVELGILKGDIEQLIAEQAHRPFFMHGLSHWLGMDVHDVGDYGSSDRGRILEPGMVLTVEPGLYIAPDADVPPQYRGIGIRIEDDIVITATGNENLTASVVKDPDDIEALMALNHAGENLYFQE
As to B2, the “HPLC Assay Conv; 1 mM peptide, 14 mM enzyme, 30 C/1 hr” value in series [21] worked out at 100%.

B3: yPIP-Q24-Cy3B (protein)
chain: MTQQEYQNRRQALLAKMAPGSAAIIFAAPEATRSADSEYPYRQNSDFSYLTGFNEPEAVLILVKSDETHNHSVLFNRIRDLTAEIWFGRRLGQEAAPTKLAVDRALPFDEINEQLYLLLNRLDVIYHAQGQYAYADNIVFAALEKLRHGFRKNLRAPATLTDWRPWLHEMRLFKSAEEIAVLRRAGEISALAHTRAMEKCRPGMFEYQLEGEILHEFTRHGARYPAYNTIVGGGENGCILHYTENECELRDGDLVLIDAGCEYRGYAGDITRTFPVNGKFTPAQRAVYDIVLAAINKSLTLFRPGTSIREVTEEVVRIMVVGLVELGILKGDIEQLIAEQAHRPFFMHGLSHWLGMDVHDVGDYGSSDRGRILEPGMVLTVEPGLYIAPDADVPPQYRGIGIRIEDDIVITATGNENLTASVVKDPDDIEALMALNHAGENLYFQE
In the case of B3, in series [21], the “HPLC Assay Conv; 1 mM Peptide, 2.1 uM Enzyme, 37 C/0.5 hr” value came to 100%.

B4: (Cy3B)n-yPIP (protein)
chain: MTQQEYQNRRQALLAKMAPGSAAIIFAAPEATRSADSEYPYRQNSDFSYLTGFNEPEAVLILVKSDETHNHSVLFNRIRDLTAEIWFGRRLGQEAAPTKLAVDRALPFDEINEQLYLLLNRLDVIYHAQGQYAYADNIVFAALEKLRHGFRKNLRAPATLTDWRPWLHEMRLFKSAEEIAVLRRAGEISALAHTRAMEKCRPGMFEYQLEGEILHEFTRHGARYPAYNTIVGGGENGCILHYTENECELRDGDLVLIDAGCEYRGYAGDITRTFPVNGKFTPAQRAVYDIVLAAINKSLTLFRPGTSIREVTEEVVRIMVVGLVELGILKGDIEQLIAEQAHRPFFMHGLSHWLGMDVHDVGDYGSSDRGRILEPGMVLTVEPGLYIAPDADVPPQYRGIGIRIEDDIVITATGNENLTASVVKDPDDIEALMALNHAGENLYFQE
Take B4: the “HPLC Assay Conv; 1 mM peptide, 14 mM enzyme, Tris pH 8.0, 30 C/15 min” value in series [21] came out at 100%.

B5: VPr pAzF (protein)
chain: MPPITQQATVTAWLPQVDASQITGTISSLESFTNRFYTTTSGAQASDWIASEWQALSASLPNASVKQVSHSGYNQKSVVMTITGSEAPDEWIVIGGHLDSTIGSHTNEQSVAPGADDDASGIAAVTEVIRVLSENNFQPKRSIAFMAYAAEEVGLRGSQDLANQYKSEGKNVVSALQLDMTNYKGSAQDVVFITDYTDSNFTQYLTQLMDEYLPSLTYGFDTCGYACSDHASWHNAGYPAAMPFESKFNDYNPRIHTTQDTLANSDPTGSHAKKFTQLGLAYAIEMGSATGDTPTPGNQ
With B5, the “HPLC Assay Conv; 200 uM Peptide, 4 uM enzyme, 37 C/1 hr” value in series [22] is listed as 96%.

B6: Cy3B-taqAPT 2nd peak (protein)
chain: MDAFTENLNKLAELAIRVGLNLEEGQEIVATAPIEAVDFVRLLAEKAYENGASLFTVLYGDNLIARKRLALVPEAHLDRAPAWLYEGMAKAFHEGAARLAVSGNDPKALEGLPPERVGRAQQAQSRAYRPTLSAITEFVTNWTIVPFAHPGWAKAVFPGLPEEEAVQRLWQAIFQATRVDQEDPVAAWEAHNRVLHAKVAFLNEKRFHALHFQGPGTDLTVGLAEGHLWQGGATPTKKGRLCNPNLPTEEVFTAPHRERVEGVVRASRPLALSGQLVEGLWARFEGGVAVEVGAEKGEEVLKKLLDTDEGARRLGEVALVPADNPIAKTGLVFFDTLFDENAASHIAFGQAYAENLEGRPSGEEFRRRGGNESMVHVDWMIGSEEVDVDGLLEDGTRVPLMRRGRWVI
Take B6: the “HPLC Assay Conv; 1 mM Peptide, 20 uM Enzyme, 37 C/0.5 hr” value in series [23] stood at 100%.

B7: Cy3B-taqAPT 4th peak (protein)
chain: MDAFTENLNKLAELAIRVGLNLEEGQEIVATAPIEAVDFVRLLAEKAYENGASLFTVLYGDNLIARKRLALVPEAHLDRAPAWLYEGMAKAFHEGAARLAVSGNDPKALEGLPPERVGRAQQAQSRAYRPTLSAITEFVTNWTIVPFAHPGWAKAVFPGLPEEEAVQRLWQAIFQATRVDQEDPVAAWEAHNRVLHAKVAFLNEKRFHALHFQGPGTDLTVGLAEGHLWQGGATPTKKGRLCNPNLPTEEVFTAPHRERVEGVVRASRPLALSGQLVEGLWARFEGGVAVEVGAEKGEEVLKKLLDTDEGARRLGEVALVPADNPIAKTGLVFFDTLFDENAASHIAFGQAYAENLEGRPSGEEFRRRGGNESMVHVDWMIGSEEVDVDGLLEDGTRVPLMRRGRWVI
In the case of B7, the “HPLC Assay Conv; 1 mM Peptide, 20 uM Enzyme, 37 C/0.5 hr” value in series [23] came to 100%.

B8: P. furiosus Aminopeptidase I (protein)
chain: MVDWELMKKIIESPGVSGYEHLGIRDLVVDILKDVADEVKIDKLGNVIAHFKGSAPKVMVAAHMDKIGLMVNHIDKDGYLRVVPIGGVLPETLIAQKIRFFTEKGERYGVVGVLPPHLRREAKDQGGKIDWDSIIVDVGASSREEAEEMGFRIGTIGEFAPNFTRLSEHRFATPYLDDRICLYAMIEAARQLGEHEADIYIVASVQEEIGLRGARVASFAIDPEVGIAMDVTFAKQPNDKGKIVPELGKGPVMDVGPNINPKLRQFADEVAKKYEIPLQVEPSPRPTGTDANVMQINREGVATAVLSIPIRYMHSQVELADARDVDNTIKLAKALLEELKPMDFTPLE
Turning to B8, the “HPLC Assay Conv; 1 mM Peptide, 1 uM enzyme, RT/0.5 hr” value was 100% in series [1]; 99% in series [2]; 19% in [3]; 0% in series [4]; 100% in [5]; 72% in series [6]. Besides, the “HPLC Assay Conv; 1 mM Peptide, 1 uM enzyme, RT/0.5 hr” value worked out at 93% in series [7]; 100% in series [8]; 0% in series [9]; 0% in series [10]; 100% in [11]; 86% in [12]. Moreover, the “HPLC Assay Conv; 1 mM Peptide, 1 uM enzyme, RT/0.5 hr” value in [13] is reported as 90%; in [14], 81%; in series [15] it was 100%; in series [16], 0%; in [17], 37%; in series [18], 65%. The “HPLC Assay Conv; 1 mM Peptide, 1 uM enzyme, RT/0.5 hr” value in series [19] and in series [20] was 100% throughout. In addition, in series [24], the “HPLC Assay Conv; 1 mM Peptide, 1.0 uM enzyme, RT/0.5 hr” value is reported as “Distribution (product: Mainly ADDDWK)”.

(Values after patent publication US20250283886.)
